Experimental data: PubChem BioAssay AID1259414 (Drosophila RNAi Screening Center, 2018)
Screen: 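Genome-wide screen for host control of endosymbiont load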 (primary screen). Cells: Drosophila JW18 cells infected with Wolbachia. Knock-down reagent: long dsRNA against Drosophila genes, 0.25 µg dsRNA per well of a 384-well plate. Timing: 5 days. Challenge: cells persistently infected with Wolbachia before knock-down; no added drug. Detection: 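Imaged fluorescence in situ signal for Wolbachia 23S rRNA per DAPI-counted host cell, given as a robust z-score within each plate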. Scale: Wolbachia per cell robust z: higher = more Wolbachia per host cell than the plate typical. Rule for the call: 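Hit when robust z is 1.5 or more, or -1.5 or less, in at least two of three replicates; excludes dsRNAs with several or no targets, genes not expressed in JW18 and well A1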.
The screen tested about 24,000 reagents; this is a random part of those with a known target gene and a result. Over the whole deposit, about 1,210 (5%) are marked active. 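Inactive calls also include excluded dsRNAs with several or no targets, genes unexpressed in JW18, and well A1, regardless of score.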 Entries without a mark were called inactive. Reagents against one gene are numbered here. A plus sign joins genes that one reagent is predicted to hit.

For CG9782 #1, what does the deposit list?
Wolbachia per cell robust z, rep 1: 0.758; Wolbachia per cell robust z, rep 2: 0.516; Wolbachia per cell robust z, rep 3: -0.482

How did the screen score CG9782 #2?
Wolbachia per cell robust z, rep 1: -0.847; Wolbachia per cell robust z, rep 2: 1.2; Wolbachia per cell robust z, rep 3: 0.796

Which result is listed for CG9782 #3?
Wolbachia per cell robust z, rep 1: 0.236; Wolbachia per cell robust z, rep 2: -0.224; Wolbachia per cell robust z, rep 3: -0.136

For asRNA:CR43477 + CG12256 #1, what does the deposit list?
Wolbachia per cell robust z, rep 1: -0.304; Wolbachia per cell robust z, rep 2: -0.261; Wolbachia per cell robust z, rep 3: -0.449

Which result is listed for asRNA:CR43477 + CG12256 #2?
Wolbachia per cell robust z, rep 1: 0.572; Wolbachia per cell robust z, rep 2: -0.196; Wolbachia per cell robust z, rep 3: 1.15

With Sirt1, what does the deposit list?
Wolbachia per cell robust z, rep 1: 0.34; Wolbachia per cell robust z, rep 2: -0.829; Wolbachia per cell robust z, rep 3: 1.03

How did the screen score lky #1?
Wolbachia per cell robust z, rep 1: 0.804; Wolbachia per cell robust z, rep 2: 0.478; Wolbachia per cell robust z, rep 3: 0.852

What is on record for lky #2?
Wolbachia per cell robust z, rep 1: 1.34; Wolbachia per cell robust z, rep 2: -0.016; Wolbachia per cell robust z, rep 3: 1.32

With brun, what does the deposit list?
Wolbachia per cell robust z, rep 1: 0.185; Wolbachia per cell robust z, rep 2: 0.00325; Wolbachia per cell robust z, rep 3: 1.16

What is on record for Pde6 #1?
Wolbachia per cell robust z, rep 1: -1.62 (active); Wolbachia per cell robust z, rep 2: 0.36; Wolbachia per cell robust z, rep 3: -2.54

What is on record for Pde6 #2?
Wolbachia per cell robust z, rep 1: 0.72; Wolbachia per cell robust z, rep 2: 0.838; Wolbachia per cell robust z, rep 3: 0.48

Which result is listed for Pde6 #3?
Wolbachia per cell robust z, rep 1: 0.6; Wolbachia per cell robust z, rep 2: 1.4; Wolbachia per cell robust z, rep 3: 1.13

Which result is listed for Gr77a #1?
Wolbachia per cell robust z, rep 1: -1.54; Wolbachia per cell robust z, rep 2: -10.4; Wolbachia per cell robust z, rep 3: -1.47

For Gr77a #2, what was measured?
Wolbachia per cell robust z, rep 1: 0.892; Wolbachia per cell robust z, rep 2: 0.969; Wolbachia per cell robust z, rep 3: -0.587

4 of these entries, set out differently.
gene,dsRNA no.,"Wolbachia per cell robust z, rep 1","Wolbachia per cell robust z, rep 2","Wolbachia per cell robust z, rep 3"
lky,1,0.804,0.478,0.852
lky,2,1.34,-0.016,1.32
brun,1,0.185,0.00325,1.16
Pde6,1,-1.62 (active),0.36,-2.54

Next entries follow:
With CG42705, what does the deposit list?
Wolbachia per cell robust z, rep 1: -2.08; Wolbachia per cell robust z, rep 2: 0.117; Wolbachia per cell robust z, rep 3: 0.665

For H2.0 #1, what does the deposit list?
Wolbachia per cell robust z, rep 1: -0.237; Wolbachia per cell robust z, rep 2: 1.51; Wolbachia per cell robust z, rep 3: 0.68

What did the screen give for H2.0 #2?
Wolbachia per cell robust z, rep 1: 0.9; Wolbachia per cell robust z, rep 2: 0.823; Wolbachia per cell robust z, rep 3: 1.07

What did the screen give for Or85a?
Wolbachia per cell robust z, rep 1: -3.86; Wolbachia per cell robust z, rep 2: 0.202; Wolbachia per cell robust z, rep 3: 1.12

For Dref, how do the results read?
Wolbachia per cell robust z, rep 1: 0.677; Wolbachia per cell robust z, rep 2: 0.894; Wolbachia per cell robust z, rep 3: 0.281

With CG5866, how do the results read?
Wolbachia per cell robust z, rep 1: 0.0374; Wolbachia per cell robust z, rep 2: 1.33; Wolbachia per cell robust z, rep 3: -0.384

For Nf-YC, what does the deposit list?
Wolbachia per cell robust z, rep 1: 0.238; Wolbachia per cell robust z, rep 2: 0.168; Wolbachia per cell robust z, rep 3: -0.343

Which result is listed for Sk2?
Wolbachia per cell robust z, rep 1: 0.342; Wolbachia per cell robust z, rep 2: -0.0404; Wolbachia per cell robust z, rep 3: 1.16

What did the screen give for CG13033 #1?
Wolbachia per cell robust z, rep 1: 0.161; Wolbachia per cell robust z, rep 2: -0.684; Wolbachia per cell robust z, rep 3: -0.339

For CG13033 #2, what does the deposit list?
Wolbachia per cell robust z, rep 1: 1.01; Wolbachia per cell robust z, rep 2: 0.332; Wolbachia per cell robust z, rep 3: 0.886
